# Measurements reported in PubChem BioAssay AID624099 (ICCB-Longwood, 2012)
# Test: 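Human genes that papillomavirus E2 requires to repress the HPV18 LCR promoter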 (primary screen)
# System: human C33A cervical carcinoma cells (HPV-negative) stably expressing BPV1 E2 and an HPV18 LCR luciferase reporter
# Reagent: siRNA pool against human genes, 40 nM
# Time to read-out: 72 h
# Measured: 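Per-well luciferase luminescence, z-scored on each plate against the plate mean and SD with control wells left out, then averaged across three replicate plates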
# Scale: mean z-score and z-score: higher = stronger reporter signal, weaker E2 silencing
# Active means: 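Mean z ≥ 2 together with z ≥ 2 in two or more of the three replicates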
# Here is an unselected part of about 21,000 reagents. 497 of all reagents (2.4%) were called active. 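Higher z means weaker E2 silencing; only reporter increases were scored, and knock-downs that hurt cell survival may mask genuine repressor factors.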 The numbers tell different reagents against one gene apart. No sequences are given here.
Gene,reagent no.,mean z-score,"z-score, replicate A","z-score, replicate B","z-score, replicate C",Call
STIL (STIL centriolar assembly protein),1,0.66,0.42,0.72,0.84,inactive
DYRK1B,1,-0.07,-0.13,0.02,-0.08,inactive
TMOD1 (tropomodulin 1),1,0.84,1,0.8,0.73,inactive
FMR1NB (FMR1 neighbor),1,-0.17,-0.04,-0.19,-0.28,inactive
CADM4 (cell adhesion molecule 4),1,-1.73,-1.39,-2.26,-1.55,inactive
GTF2A1L (general transcription factor IIA subunit 1 like),1,0.98,0.64,1.11,1.19,inactive
TRPM1,1,0.13,0.37,0.22,-0.2,inactive
ZNF530 (zinc finger protein 530),1,2.32,2.15,2.62,2.19,active
FOXM1 (forkhead box M1),1,0.41,0.69,0.23,0.3,inactive
EVPLL (envoplakin like),1,0.17,-0.04,0.37,0.18,inactive
ADPRH (ADP-ribosylarginine hydrolase),1,0.38,0.38,0.4,0.35,inactive
"PRG3 (proteoglycan 3, pro eosinophil major basic protein 2)",1,-0.42,-0.41,-0.41,-0.43,inactive
FAM225A (family with sequence similarity 225 member A),1,-1.18,-1.41,-0.95,-1.18,inactive
ITFG1 (integrin alpha FG-GAP repeat containing 1),1,-0.65,-0.5,-1.24,-0.21,inactive
LOC643406,1,0.29,0.69,0.11,0.07,inactive
IKZF3 (IKAROS family zinc finger 3),1,-0.87,-1.15,-0.65,-0.81,inactive
MEIOB (meiosis specific with OB-fold),1,0.01,0,0.29,-0.25,inactive
ABHD12B (abhydrolase domain containing 12B),1,-0.32,-0.42,-0.36,-0.17,inactive
ACER1 (alkaline ceramidase 1),1,1.17,1.26,1.21,1.04,inactive
TTC7B (tetratricopeptide repeat domain 7B),1,-0.61,-0.92,-0.55,-0.35,inactive
LOC401126 (retired record),1,-0.95,-0.97,-1.21,-0.67,inactive
PPFIBP2 (PPFIB scaffold protein 2),1,-0.58,-0.54,-0.45,-0.75,inactive
GABPB2 (GA binding protein transcription factor subunit beta 2),1,-1.41,-1.42,-1.35,-1.46,inactive
LOC401845 (retired record),1,-0.17,-0.29,-0.11,-0.12,inactive
HOXC11 (homeobox C11),1,1.08,1.06,1.14,1.03,inactive
PDRG1 (p53 and DNA damage regulated 1),1,-0.1,0.28,-0.25,-0.34,inactive
UBE2V2 (ubiquitin conjugating enzyme E2 V2),1,0.12,0.22,0.08,0.07,inactive
VAV2 (vav guanine nucleotide exchange factor 2),1,0.08,0.06,-0.08,0.27,inactive
SHROOM2 (shroom family member 2),1,-2.24,-2.61,-2.19,-1.93,inactive
ICOSLG (inducible T cell costimulator ligand),1,-0.85,-1.01,-0.81,-0.74,inactive
IBSP (integrin binding sialoprotein),1,-0.83,-0.8,-0.5,-1.18,inactive
LINC01107 (long independently transcribed non-coding RNA 1107),1,0.12,0.33,-0.27,0.28,inactive
ATM (ATM serine/threonine kinase),1,-0.5,-0.76,-0.07,-0.68,inactive
CREB5 (cAMP responsive element binding protein 5),1,0.22,0.18,0.18,0.29,inactive
CREB5 (cAMP responsive element binding protein 5),2,0.73,0.62,0.62,0.96,inactive
CREB5 (cAMP responsive element binding protein 5),3,0.33,0.44,0.42,0.13,inactive
UPK3B (uroplakin 3B),1,0.96,0.37,1.36,1.15,inactive
PARVG (parvin gamma),1,0.23,-0.2,0.11,0.78,inactive
WRN (WRN RecQ like helicase),1,2.52,2.54,2.51,2.51,active
FFAR3 (free fatty acid receptor 3),1,1.55,2,0.99,1.65,inactive
CFAP141 (cilia and flagella associated protein 141),1,-0.06,-0.24,-0.06,0.13,inactive
KIF21B (kinesin family member 21B),1,0.25,0.36,0.04,0.35,inactive
GRK1 (G protein-coupled receptor kinase 1),1,2.13,2.35,1.94,2.09,active
RPS25 (ribosomal protein S25),1,-0.83,-1.19,-0.85,-0.44,inactive
GNG2 (G protein subunit gamma 2),1,-0.47,-0.39,-0.26,-0.76,inactive
SIRT3 (sirtuin 3),1,-0.11,0.37,-0.21,-0.51,inactive
RAD23B (RAD23 nucleotide excision repair protein B),1,-1.99,-2,-2.07,-1.9,inactive

Active calls, among the entries above:
Gene,reagent no.,mean z-score,"z-score, replicate A","z-score, replicate B","z-score, replicate C",Call
ZNF530 (zinc finger protein 530),1,2.32,2.15,2.62,2.19,active
WRN (WRN RecQ like helicase),1,2.52,2.54,2.51,2.51,active
GRK1 (G protein-coupled receptor kinase 1),1,2.13,2.35,1.94,2.09,active

More reagents follow:
Gene,reagent no.,mean z-score,"z-score, replicate A","z-score, replicate B","z-score, replicate C",Call
REV1 (REV1 DNA directed polymerase),1,-1.14,-1.23,-1.29,-0.9,inactive
GPHA2 (glycoprotein hormone subunit alpha 2),1,-1.11,-0.78,-1.06,-1.49,inactive
SULT1A2 (sulfotransferase family 1A member 2),1,-0.82,-0.81,-0.8,-0.85,inactive
PPP1R17 (protein phosphatase 1 regulatory subunit 17),1,0.54,0,0.9,0.73,inactive
DCAF1 (DDB1 and CUL4 associated factor 1),1,-2.26,-2.12,-2.31,-2.35,inactive
QTRT1 (queuine tRNA-ribosyltransferase catalytic subunit 1),1,0.32,0.01,0.72,0.25,inactive
KRABD3 (KRAB domain containing 3),1,0.02,0.06,0.18,-0.17,inactive
LRRC74BNL (LRRC74B N-terminal like),1,0.45,0.48,0.19,0.68,inactive
RBM3 (RNA binding motif protein 3),1,0.18,0.19,0.16,0.19,inactive
DPY19L1P1 (DPY19L1 pseudogene 1),1,-1.76,-2.04,-1.51,-1.72,inactive
ZNF511 (zinc finger protein 511),1,0.33,-0.06,0.49,0.56,inactive
LOC388563 (retired record),1,0.94,1.24,1.04,0.54,inactive
LAD1 (ladinin 1),1,0.77,1.04,0.48,0.77,inactive
IL12B (interleukin 12B),1,-0.11,0.12,-0.22,-0.25,inactive
VPS16 (VPS16 core subunit of CORVET and HOPS complexes),1,2.24,2.35,1.89,2.48,active
FAM230I (family with sequence similarity 230 member I),1,0.06,-0.18,0.5,-0.15,inactive
NIBAN1 (niban apoptosis regulator 1),1,0.68,0.91,0.59,0.56,inactive
"LOC642355 (nucleoside diphosphate kinase, mitochondrial-like)",1,0.76,0.79,0.79,0.71,inactive
BRINP1 (BMP/retinoic acid inducible neural specific 1),1,0.89,0.67,0.97,1.04,inactive
ARMC10P1 (armadillo repeat containing 10 pseudogene 1),1,0.75,0.97,0.84,0.44,inactive
PGAP4 (post-GPI attachment to proteins GalNAc transferase 4),1,0.82,0.91,1,0.56,inactive
ACD,1,1.7,1.61,1.59,1.9,inactive
NDUFA2 (NADH:ubiquinone oxidoreductase subunit A2),1,0.13,-0.04,0.31,0.11,inactive
SLITRK5 (SLIT and NTRK like family member 5),1,-0.12,-0.06,-0.2,-0.08,inactive
RCC1 (regulator of chromosome condensation 1),1,0.97,1,1.29,0.63,inactive
OR5I1 (olfactory receptor family 5 subfamily I member 1),1,-0.59,-0.41,-0.87,-0.5,inactive
